Results of unrelated studies side by side (data: NIAID ChemDB).

All rows: growth or infection tests; species: Candida albicans; method: broth dilution; endpoint: MIC

An empty or dashed field is not shown. Conditions beyond the fields shown may differ between rows.

O=C(OC(Cn1ccnc1)c1ccc(F)cc1)c1cccc(C(F)(F)F)c1 ; value: 46.3 µg/mL
C=C1C[C@@H]2C[C@@H]3CCO[C@@H](O3)c3cccc(c3)/C=C\C[C@H]3O[C@@H](/C(C)=C/C#N)[C@H](C)[C@@H](OC(=O)/C=C/C[C@@H](C1)O2)[C@H]3C ; strain or isolate: UCD-FR1 ; value: >64 µg/mL
Cc1cc(Cl)[nH]c2ccc3c(=O)c(C(=O)NN4C(=O)C(Cl)C4c4ccccc4Cl)cnc3c12 ; value: 100 µg/mL
COC(=O)/C(C)=C1\C(=O)[C@H](O)[C@]2(C)C3=C1[C@]14OC(=O)C5=C1C[C@H]1[C@](O)(COC(=O)/C(C)=C/COC(=O)CCC(=O)OC5)[C@H]5C[C@H]5[C@]1(C)[C@@H]4C[C@]3(O)[C@H]1C[C@H]12 ; strain or isolate: ATCC 90028 ; value: 4 µg/mL
CCn1c2ccccc2c2c(N)n[nH]c(=O)c21 ; value: 250 µg/mL
C[C@@H](c1ncncc1F)[C@](O)(Cn1cncn1)c1ccc(F)cc1F ; strain or isolate: M61 ; value: 0.01 µg/mL
Cc1ccc(N2NOC(=O)C2S(=O)(=O)Nc2nc3c([N+](=O)[O-])cccc3s2)cc1 ; strain or isolate: MTCC 227 ; value: 500 µg/mL
O=C(NN1C(=O)/C(=C/c2cc3ccccc3nc2Cl)N=C1c1ccccc1)c1ccc(Cl)cc1 ; strain or isolate: MTCC 227 ; value: 200 µg/mL
Cc1ccc(-n2nc(C)c(C3CC(=O)N(c4ccc(F)cc4)C4=C3C(=O)CC(C)(C)C4)c2Cl)cc1 ; strain or isolate: MTCC 227 ; value: 1000 µg/mL
O=C(O[C@@H]1COC(=O)c2cc(O)c(O)c(O)c2-c2c(cc(O)c(O)c2O)C(=O)OC1C1OC(=O)c2cc(O)c(O)c(O)c2-c2c(O)c(O)c(O)c3c2C(=O)OC1[C@H]3O)c1cc(O)c(O)c(O)c1 ; strain or isolate: ATCC 64548 ; value: 580 µg/mL
Oc1ccc(O)c(C=Nc2cc(Cl)ccc2O)c1 ; strain or isolate: ATCC 10231 ; value: 78 µg/mL
CC(C)NC(=S)N/N=C/c1c[nH]c2ccccc12 ; strain or isolate: ATCC 24433 ; value: 250 µg/mL
Cc1ccc(-n2nc(C)c(C3CC(=O)N(c4ccc(F)cc4)C4=C3C(=O)CCC4)c2Cl)cc1 ; strain or isolate: MTCC 227 ; value: 500 µg/mL
Oc1ccc(Cl)cc1N=Cc1cccc(O)c1O ; strain or isolate: ATCC 10231 ; value: 19.5 µg/mL
COc1ccc(N2C(=O)CC(c3c(C)nn(-c4cccc(Cl)c4)c3Cl)C3=C2CCCC3=O)cc1 ; strain or isolate: MTCC 227 ; value: 1000 µg/mL
O=C(N/N=C/c1ccc(O)cc1)c1ccc(CNc2nc3ccccc3[nH]2)cc1 ; value: 50 µg/mL
CC(=O)OC12CCC(C(=O)C1)C1C(=O)N(CCCCN3CCN(c4ccccn4)CC3)C(=O)C12 ; strain or isolate: DSM 1886 ; value: >100 µM
CCOC(=O)c1[nH]c2ccccc2c1C=O ; value: 250 µg/mL
Cc1ccc(/C=N/NC(=O)c2ccc(CNc3nc4ccccc4[nH]3)cc2)cc1 ; value: 100 µg/mL
COc1cc2oc(-c3ccc(O)cc3)cc(=O)c2c(O)c1Oc1ccc(-c2cc(=O)c3c(O)cc(O)cc3o2)cc1 ; strain or isolate: TM 1768 ; value: 18.11 µM
CCOc1ccc2nc(NS(=O)(=O)C3C(=O)ONN3c3ccc(C)cc3)sc2c1 ; strain or isolate: MTCC 227 ; value: 1000 µg/mL
C=C1C[C@@H]2C[C@@H]3CCO[C@@H](O3)c3cccc(c3)/C=C/C[C@H]3O[C@@H](/C(C)=C/I)[C@H](C)[C@@H](OC(=O)/C=C\C[C@@H](C1)O2)[C@H]3C ; strain or isolate: UCD-FR1 ; value: >64 µg/mL
CCCCCCNC(=S)N/N=C/C=C/c1ccccc1 ; strain or isolate: ATCC 24433 ; value: 500 µg/mL
O=C(N/N=C/c1ccc(F)cc1)c1ccc(CNc2nc3ccccc3[nH]2)cc1 ; value: 50 µg/mL
CC(=O)OC12CCC(C(=O)C1)C1C(=O)N(CCCCN3CCN(c4ccccc4O)CC3)C(=O)C12 ; strain or isolate: DSM 1886 ; value: >100 µM
C[C@H]1[C@H](O)[C@@H](C)/C=C/C=C/C=C/C=C/C=C/C=C/C=C/[C@H](O[C@@H]2O[C@H](C)[C@@H](O)[C@H](N)[C@@H]2O)C[C@@H]2O[C@](O)(C[C@@H](O)C[C@@H](O)CC[C@H](O)[C@@H](O)C[C@@H](O)CC(=O)O[C@H]1C)C[C@H](O)[C@H]2C(=O)O ; strain or isolate: SC5314 ; value: 1 µg/mL
O=C(/C=C/c1cc(Cl)ccc1Cl)c1c[nH]c2ccccc12 ; strain or isolate: ATCC 90028 ; value: 200 µg/mL
Nc1[nH]c(=O)ncc1F ; strain or isolate: ATCC 90028 ; setting: 48 h ; value: 0.125 µg/mL
COc1ccccc1N1CCN(CCCCN2C(=O)C3C4CCC(OC(C)=O)(CC4=O)C3C2=O)CC1 ; strain or isolate: DSM 1886 ; value: >100 µM
Cc1cc(Cl)[nH]c2ccc3c(=O)c(C(=O)NN4C(=O)C(Cl)C4c4ccc(Cl)cc4)cnc3c12 ; value: 200 µg/mL
CC1=C2C[C@@H]3[C@](C)(CCC[C@@]3(C)O)C[C@]2(O)OC1=O ; strain or isolate: ATCC 90028 ; value: 16 µg/mL
COC(=O)c1c(N)oc2c(C)c(C)c(O)c(Sc3cccc(C)c3)c12 ; strain or isolate: KCCM 50235 ; value: 25 µg/mL
CCCCOc1ccc(-c2csc(NS(=O)(=O)C3C(=O)ONN3c3ccc(C)cc3)n2)cc1 ; strain or isolate: MTCC 227 ; value: 200 µg/mL
Cc1ccc(N2N=C(c3c[nH]c4ccccc34)CC2c2cccc(Cl)c2Cl)cc1 ; strain or isolate: ATCC 90028 ; value: 400 µg/mL
O=C(N/N=C/c1ccc([N+](=O)[O-])cc1)c1ccc(CNc2nc3ccccc3[nH]2)cc1 ; value: 25 µg/mL
Nc1nc(=O)n([C@H]2O[C@@H](CO)[C@H](O)[C@@H]2O)cc1F ; strain or isolate: ATCC 90028 ; value: 0.75 µg/mL
CCOC(=O)c1c(N)oc2c(C)cc(O)c(C)c12 ; strain or isolate: KCCM 50235 ; value: 25 µg/mL
CC(=O)OC12CCC(C(=O)C1)C1C(=O)N(CCCCN3CCN(Cc4ccccc4)CC3)C(=O)C12 ; strain or isolate: DSM 1886 ; value: >100 µM
N#Cc1ccc(/C=N/NC(=O)c2ccc(CNc3nc4ccccc4[nH]3)cc2)cc1 ; value: 25 µg/mL
CO[C@@]12OC(=O)C(C)=C1C1=C3[C@](C)([C@@H]4C[C@@H]4[C@@]3(O)C[C@@H]3[C@]14OC(=O)C1=C4C[C@H]4[C@](O)(COC(=O)/C(C)=C/COC(=O)CCC(=O)OC1)[C@H]1C[C@H]1[C@]34C)[C@H]2O ; strain or isolate: ATCC 90028 ; value: 8 µg/mL
COc1ccc(C=NNC(=O)c2cnc3c(ccc4[nH]c(Cl)cc(C)c43)c2=O)cc1 ; value: 500 µg/mL
CCOC(=O)c1c(C#N)c2ccccc2n1C ; value: 250 µg/mL
C=C1C[C@@H]2C[C@@H]3CCO[C@@H](O3)c3coc(n3)/C=C/C[C@H]3O[C@@H](/C(C)=C/c4coc(C[C@]5(O)C[C@H](OC)C[C@H]([C@H](O)/C=C(C)/C=C/[C@@H](C/C=C/Cl)OC)O5)n4)[C@H](C)[C@@H](OC(=O)/C=C\C[C@@H](C1)O2)[C@H]3C ; strain or isolate: ATCC 14503 ; value: 2 µg/mL
Cc1ccc(N2NOC(=O)C2S(=O)(=O)Nc2nc3ccc([N+](=O)[O-])cc3s2)cc1 ; strain or isolate: MTCC 227 ; value: 100 µg/mL
CCN(CC)c1ccc(/C=N/NC(=O)c2ccc(CNc3nc4ccccc4[nH]3)cc2)cc1 ; value: 100 µg/mL
S=C(N/N=C/c1c[nH]c2ccccc12)Nc1ccccc1 ; strain or isolate: ATCC 24433 ; value: 500 µg/mL
COc1ccc(-c2nc3ccccc3c(=O)n2-c2ccc(NS(=O)(=O)C3C(=O)ONN3c3ccc(C)cc3)cc2)cc1 ; strain or isolate: MTCC 227 ; value: 500 µg/mL
CC(=O)N1CCN(c2ccc(OC[C@H]3CO[C@](Cn4ccnc4)(c4ccc(Cl)cc4Cl)O3)cc2)CC1 ; strain or isolate: ATCC 90028 ; value: 12.5 µg/mL
Nn1c(SCC(O)(Cn2cncn2)c2ccc(F)cc2F)nnc1-c1ccncc1 ; strain or isolate: ATCC 18804 ; value: >64 µg/mL
CCOC(=O)c1cnc2c(ccc3[nH]c(Cl)cc(C)c32)c1=O ; value: 200 µg/mL
O=C(Cc1ccccc1)NN1C(=O)/C(=C/c2cc3ccccc3nc2Cl)N=C1c1ccccc1 ; strain or isolate: MTCC 227 ; value: 1000 µg/mL
Cc1ccc(C=NNC(=O)c2cnc3c(ccc4[nH]c(Cl)cc(C)c43)c2=O)cc1 ; value: 250 µg/mL
C[C@@H](c1ncncc1F)[C@](O)(Cn1cncn1)c1ccc(F)cc1F ; strain or isolate: ATCC 90028 ; value: 1 µg/mL
Cc1cc(Cl)[nH]c2ccc3c(=O)c(C(=O)NN=Cc4ccc(Cl)cc4)cnc3c12 ; value: 500 µg/mL
CN(C)C(=S)SCC(O)(Cn1cncn1)c1ccc(F)cc1F ; strain or isolate: Y0109 ; value: ≤0.0125 µg/mL
CC1(C)S[C@@H]2[C@H](NC(=O)[C@H](N)c3ccccc3)C(=O)N2[C@H]1C(=O)O ; strain or isolate: ATCC 2002 ; value: 0.6 µg/mL
Cc1ccc(N2N=C(c3c[nH]c4ccccc34)CC2c2c(Cl)cccc2Cl)cc1 ; strain or isolate: ATCC 90028 ; value: 200 µg/mL
COc1ccc(N2C(=O)CC(c3c(C)nn(-c4ccccc4)c3Cl)C3=C2CC(C)(C)CC3=O)cc1 ; strain or isolate: MTCC 227 ; value: 1000 µg/mL
Cn1c2ccccc2c2cnn(-c3ccc(F)cc3)c(=O)c21 ; value: 250 µg/mL
Oc1ccc(Cl)cc1C=Nc1cc(Cl)ccc1O ; strain or isolate: ATCC 10231 ; value: 19.5 µg/mL
O=C(NN1C(=O)/C(=C/c2cc3ccccc3nc2Cl)N=C1c1ccccc1)c1cc(Cl)ccc1Cl ; strain or isolate: MTCC 227 ; value: 100 µg/mL
Cc1ccc(N2NOC(=O)C2S(=O)(=O)Nc2ccc(-n3c(-c4ccccc4Cl)nc4ccccc4c3=O)cc2)cc1 ; strain or isolate: MTCC 227 ; value: 1000 µg/mL
Nn1c(SCC(O)(Cn2cncn2)c2ccc(F)cc2F)nnc1-c1ccc(Cl)cc1Cl ; strain or isolate: ATCC 18804 ; value: 32 µg/mL
O=C(N/N=C/c1ccc(C(F)(F)F)cc1)c1ccc(CNc2nc3ccccc3[nH]2)cc1 ; value: 25 µg/mL
C=C1C[C@@H]2C[C@@H]3CCO[C@@H](O3)c3cccc(c3)/C=C/C[C@H]3O[C@@H](/C(C)=C/I)[C@H](C)[C@@H](OC(=O)/C=C/C[C@@H](C1)O2)[C@H]3C ; strain or isolate: 96-489 ; value: >64 µg/mL
COC(=O)c1c(N)oc2ccc(O)cc12 ; strain or isolate: KCCM 50235 ; value: 25 µg/mL
CCNC(=S)N/N=C/C=C/c1ccccc1 ; strain or isolate: ATCC 24433 ; value: 250 µg/mL
O=C(NN1C(=O)/C(=C/c2cc3ccccc3nc2Cl)N=C1c1ccccc1)c1ccccc1 ; strain or isolate: MTCC 227 ; value: 100 µg/mL
Cc1ccc(-c2nnc(SCC(O)(Cn3cncn3)c3ccc(Cl)cc3Cl)n2N)cc1 ; strain or isolate: IRFC 37 ; value: 8 µg/mL
CCCCNC(=S)N/N=C/c1c[nH]c2ccccc12 ; strain or isolate: ATCC 24433 ; value: 500 µg/mL
Oc1ccc(Cl)cc1N=Cc1cc(Cl)cc(Br)c1O ; strain or isolate: ATCC 10231 ; value: 19.5 µg/mL
O=C(NN1C(=O)/C(=C/c2cc3ccccc3nc2Cl)N=C1c1ccccc1)c1cccc(Cl)c1 ; strain or isolate: MTCC 227 ; value: 100 µg/mL
Nn1c(SCC(O)(Cn2cncn2)c2ccc(F)cc2F)nnc1-c1ccc(F)cc1 ; strain or isolate: ATCC 18804 ; value: >64 µg/mL
CCCCCOc1ccc(-c2ccc(-c3ccc(C(=O)N[C@H]4C[C@@H](O)[C@@H](O)NC(=O)[C@@H]5[C@@H](O)[C@@H](C)CN5C(=O)[C@H]([C@H](C)O)NC(=O)[C@H]([C@H](O)[C@@H](O)c5ccc(O)cc5)NC(=O)[C@@H]5C[C@@H](O)CN5C(=O)[C@H]([C@H](C)O)NC4=O)cc3)cc2)cc1 ; strain or isolate: M61 ; value: 0.003 µg/mL

Repeating the first 7 entries:

compound,strain or isolate,setting,value
O=C(OC(Cn1ccnc1)c1ccc(F)cc1)c1cccc(C(F)(F)F)c1,,,46.3 µg/mL
C=C1C[C@@H]2C[C@@H]3CCO[C@@H](O3)c3cccc(c3)/C=C\C[C@H]3O[C@@H](/C(C)=C/C#N)[C@H](C)[C@@H](OC(=O)/C=C/C[C@@H](C1)O2)[C@H]3C,UCD-FR1,,>64 µg/mL
Cc1cc(Cl)[nH]c2ccc3c(=O)c(C(=O)NN4C(=O)C(Cl)C4c4ccccc4Cl)cnc3c12,,,100 µg/mL
COC(=O)/C(C)=C1\C(=O)[C@H](O)[C@]2(C)C3=C1[C@]14OC(=O)C5=C1C[C@H]1[C@](O)(COC(=O)/C(C)=C/COC(=O)CCC(=O)OC5)[C@H]5C[C@H]5[C@]1(C)[C@@H]4C[C@]3(O)[C@H]1C[C@H]12,ATCC 90028,,4 µg/mL
CCn1c2ccccc2c2c(N)n[nH]c(=O)c21,,,250 µg/mL
C[C@@H](c1ncncc1F)[C@](O)(Cn1cncn1)c1ccc(F)cc1F,M61,,0.01 µg/mL
Cc1ccc(N2NOC(=O)C2S(=O)(=O)Nc2nc3c([N+](=O)[O-])cccc3s2)cc1,MTCC 227,,500 µg/mL